Compound potency records, mixed from different reports. Data source: NIAID ChemDB in PubChem.

Common to all: growth or infection tests; organism: HIV-1; endpoint: EC50

ECn is the concentration giving n% inhibition of infection, replication or growth. An empty or dashed field is not shown. a–b is a range or a potency band. Rows are shuffled and stem from different studies.

structure | conditions | mutations | strain | cells | result
CC(C)C(NC(=O)OCc1ccccc1)C(=O)N[C@H](CC[C@H](O)[C@H](Cc1ccccc1)NC(=O)C(NC(=O)OCc1ccccc1)C(C)C)Cc1ccccc1 | - | - | IIIB | MT-4 | >100 µM
CC(=O)OC[C@H]1OC(n2cnc3c(Cl)nc(Cl)nc32)[C@@H]2CC=CC[C@H]12 | - | - | LAI | CEM | 5.9 µM
CCCCC1(CCc2cccc(NS(=O)(=O)c3ccccc3)c2)COC(=O)C(C(CC)c2cccc(NS(=O)(=O)c3ccccc3)c2)=C1O | - | - | IIIB | MT-4 | 15.1 µM
CCCc1c(SC2CCCC2)c2cc(F)ccc2[nH]c1=O | - | RT-Y181C | Nevirapine-resistant (RT Y181C) | MT-4 | 0.263 µM
CC1=CN([C@@H]2CS[C@@H](CO)O2)S(=O)(=O)NC1=O | - | - | RF | MT-4 | >100 µg/mL
CCC(C)c1c(OC2CCCC2)c2cc(Cl)ccc2[nH]c1=O | - | RT-Y181C | Nevirapine-resistant (RT Y181C) | MT-4 | 0.353 µM
CC[C@H](C)[C@H](NC(=O)[C@@H]1CCCN1P(=O)(OC)C(CC1CCCCC1)NC(=O)[C@@H](CC(N)=O)NC(=O)c1ccc2ccccc2n1)C(=O)NCC(C)C | - | - | RF | C8166 | 15 µM
CCOCn1c(Cc2cccc3ccccc23)c(C(C)C)c(=O)[nH]c1=O | - | - | LAV | CEM | 0.06 µM
C=C1[C@H](CO)[C@H]1Cn1cnc2nc(N)nc(Cl)c21 | - | - | - | - | >100 µM
COC(=O)C(C)NP(=O)(OC[C@H]1O[C@@H](n2cc(F)c(=O)[nH]c2=O)C[C@@H]1O)Oc1ccccc1 | - | - | - | CEM | 4.25 µM
CCCCCCCCCCCCCC(=O)OC[C@H]1O[C@@H](n2cc(C)c(=O)[nH]c2=O)C[C@@H]1N=[N+]=[N-] | - | - | IIIB | SupT1 | >100 µg/mL
C#C[C@]1(COC(=O)CCCCCC)O[C@@H](n2cnc3c(N)nc(F)nc32)C[C@@H]1O | pseudotyped | M184V | NL4-3 | U373-CD4-CXCR4 | 0.015 µM
CC(C)c1c(OCC2CCC2)c2cnccc2[nH]c1=O | - | - | - | MT-4 | 0.02 µM
C#C[C@]1(COC(=O)C(CCC)CCC)O[C@@H](n2cnc3c(N)nc(F)nc32)C[C@@H]1O | pseudotyped | M184V | NL4-3 | U373-CD4-CXCR4 | 0.111 µM
CCOC(=O)[C@H](C)NP(=O)(OC[C@@H]1O[C@H](n2cc(C)c(=O)[nH]c2=O)C[C@H]1N=[N+]=[N-])OC[C@H]1O[C@@H](n2cc(C)c(=O)[nH]c2=O)C[C@@H]1N=[N+]=[N-] | - | - | - | CEM + CEM TK- | >10 µM
CC[C@@H](C)[C@H](NC(=O)[C@@H]1CCCN1[P@](=O)(OC)[C@@H](Cc1ccccc1)NC(=O)[C@H](CC(N)=O)NC(=O)OC(C)(C)C)C(=O)NCC(C)C | - | - | RF | C8166 | >100 µM
C=C1[C@H](CO)[C@H]1Cn1cnc2ncnc(Cl)c21 | - | - | - | - | >100 µM
Cc1cn([C@@H]2C[C@@H](N=[N+]=[N-])[C@H](COP(N)(=O)OC[C@H]3O[C@@H](n4cc(C)c(=O)[nH]c4=O)C[C@@H]3N=[N+]=[N-])O2)c(=O)[nH]c1=O | - | - | - | CEM + CEM TK- | >10 µM
COc1ccccc1NC(=O)CSc1nc(CCc2ccccc2)nc2sc3c(c12)CCCC3 | - | - | - | - | >100 µM
Cc1ncnn1-c1cc(F)ccc1CNC(=O)c1nc2n(c(=O)c1O)CCOCC21CCN(C(=O)OCc2ccccc2)CC1 | - | - | NL4-3 | MT-2 | 0.001–0.01 µM
ClC(Cn1ncc2c(NCCc3ccccc3)nc(Sc3ccccc3)nc21)c1ccccc1 | - | - | - | - | >100 µM
C[C@]1(CO)[C@@H](Cn2cnc3c(=O)[nH]c(N)nc32)C1(F)F | - | - | RF | CEM | 95 µM
Cc1c(Cc2ccc3ccccc3c2)n(COCCO)c(=O)[nH]c1=O | - | - | LAV | CEM | >58.8 µM
CC[C@H](C)[C@H](NC(=O)[C@@H]1CCCN1[P@@](=O)(OC)[C@H](Cc1ccccc1)NC(=O)OCc1ccccc1)C(=O)NCC(C)C | - | - | RF | C8166 | 3 µM
CCCc1c(OC2CCCC2)c2cc(Br)ccc2[nH]c1=O | - | - | - | MT-4 | 0.07 µM
CCCCC1(CCc2cccc(NS(=O)(=O)c3ccc(C(F)(F)F)cn3)c2)COC(=O)C(C(CC)c2cccc(NS(=O)(=O)c3ccc(C(F)(F)F)cn3)c2)=C1O | - | - | IIIB | MT-4 | 0.6 µM
O=c1ccn([C@@H]2O[C@H](CO)[C@H]3CC=CC[C@H]32)c(=O)[nH]1 | - | - | LAI | CEM | 67 µM
CC(C)c1c(Cc2ccccc2)n(COCc2ccc(/C(O)=C/C(=O)C(=O)O)cc2)c(=O)[nH]c1=O | - | - | - | - | 0.033 µM
Cc1cn([C@@H]2O[C@H](COCC(C)C)C3(OS(=O)(=O)C=C3N)[C@H]2O[Si](C)(C)C(C)(C)C)c(=O)n(C)c1=O | - | - | - | CEM + CEM-SS | 0.6 µM
FC(F)(Sc1ncccn1)c1nc2ccccc2o1 | - | RT-L100I | OC/100 | - | 4.08 µM
O=c1ccn(C[C@H]2C[C@H]2CO)c(=O)[nH]1 | - | - | LAV | PBMC | >100 µM
[N-]=[N+]=N[C@H]1C[C@H](n2cc(I)cnc2=O)O[C@@H]1CO | - | - | - | CEM-V + CEM | >28 µM
O=C1C(=O)c2cc(-c3cc(O)c(O)c(O)c3)ccc2C(Oc2c(O)cc(-c3ccc4cc(O)c(O)c(O)c4c3)cc2O)=C1O | - | - | - | - | 3.9 µM
CCC(C)[C@H](NC(=O)[C@@H]1CCCN1[P@@](=O)(OC)[C@@H](Cc1ccccc1)NC(=O)[C@H](CC(N)=O)NC(=O)OC(C)(C)C)C(=O)NCC(C)C | - | - | RF | C8166 | >100 µM
CCc1c(C(=O)c2cc(C)cc(C)c2)n(CC2CC=CC2)c(=O)[nH]c1=O | - | RT-E6E/K V106I Y181C F227L | IIIB-SJ-3366 P21 (RT-E6E/K V106I Y181C F227L) | - | >567 µM
C=C1[C@H](CO)[C@H]1Cn1cnc2c(Cl)nc(N)nc21 | - | - | - | - | >100 µM
C=C(C)[C@@H]1CC[C@]2(C(=O)O)CC[C@]3(C)[C@H](CC[C@@H]4[C@@]5(C)CC[C@H](OC(=O)CC(C)(C)C(=O)O)C(C)(C)[C@@H]5CC[C@]43C)[C@@H]12 | - | - | IIIB | - | 0.0013 µg/mL
CCCc1c(OC2CCCC2)c2cc(C)ccc2[nH]c1=O | - | RT-Y181C | Nevirapine-resistant (RT Y181C) | MT-4 | 4.3 µM
Cc1ccnc(SC(F)(F)c2nc3ccccc3o2)n1 | - | RT-P236L | HEPT/236 (RT P236L) | - | 0.11 µM
CSCCC(NS(=O)(=O)c1ccc(Cl)cc1)c1nnc(SCc2ccc(Br)cc2)o1 | - | - | IIIB | MT-4 | >12.3 µg/mL
Nc1ncnc2c1ncn2[C@@H]1O[C@H](CO)[C@](O)(C(F)(F)F)[C@H]1O | - | - | - | MT-4 | >100 µM
C[C@]1(Cn2cnc3c(=O)[nH]c(N)nc32)[C@H](COCP(=O)(O)O)C1(F)F | - | - | RF | MT-4 | 90 µM
NC1=NS(=O)(=O)N([C@@H]2CS[C@@H](CO)O2)C=C1 | - | - | RF | MT-4 | >100 µg/mL
Nc1nc(NC2CC2)c2ncn([C@H]3C=C[C@@H](CO)C3)c2n1 | - | - | IIIB | PBL(PHA STIM.) + PBL | 4 µM
Nc1ncnc2c1ncn2C[C@H]1C[C@H]1[C@H](O)CO | - | - | LAV | PBMC | >100 µM
C=C(C)[C@@H]1CC[C@]2(C(=O)NCC(=O)O)CC[C@]3(C)[C@H](CC[C@@H]4[C@@]5(C)CC[C@H](O)C(C)(C)[C@@H]5CC[C@]43C)[C@@H]12 | - | - | LAI | CEM | >3 µM
Cc1cn([C@@H]2OCC(CO)=C2F)c(=O)[nH]c1=O | - | - | - | - | >100 µg/mL
CCCc1c(Cc2cccc3ccccc23)n(COCc2ccccc2)c(=O)[nH]c1=O | - | - | LAV | MT-4 | 0.234 µM
COc1nc(Cl)nc2c1ncn2[C@@H]1O[C@H](CO)[C@H]2CC=CC[C@H]21 | - | - | LAI | CEM | >100 µM
CCCCC1(CCc2cccc(NS(=O)(=O)c3ccc(OC)cc3)c2)COC(=O)C(C(CC)c2cccc(NS(=O)(=O)c3ccc(OC)cc3)c2)=C1O | - | - | IIIB | MT-4 | >29.9 µM
CC(c1nnc(SCc2ccc(Br)cc2)o1)N(Cc1ccc(Br)cc1)S(=O)(=O)c1ccc(Cl)cc1 | - | - | IIIB | MT-4 | >125 µg/mL
CC1=CC=CC2C1=NC(c1cccnc1)N2Cc1c(F)cccc1F | - | - | - | CEM | 31.6 µM
CC1=CN([C@H]2CS[C@@H](CO)O2)S(=O)(=O)NC1=O | - | - | RF | MT-4 | >100 µg/mL
Cc1ccc(-c2c([C@H](OC(C)(C)C)C(=O)O)c(C)nc3ccccc23)cc1C | - | - | - | PBMC | 0.153 µM
CC(C)Cc1c(OCC2CCC2)c2cnccc2[nH]c1=O | - | RT-Y181C | Nevirapine-resistant (RT Y181C) | MT-4 | 0.33 µM
CC(C)c1c(Cc2cccc3ccccc23)n(COCCO)c(=O)[nH]c1=O | - | - | LAV | CEM | 0.111 µM
C#C[C@]1(COC(=O)CCCCCCCC)O[C@@H](n2cnc3c(N)nc(F)nc32)C[C@@H]1O | pseudotyped | M184V | NL4-3 | U373-CD4-CXCR4 | 0.013 µM
COC(=O)C(C)NP(=O)(OC[C@H]1S[C@@H](n2cc(F)c(=O)[nH]c2=O)C[C@@H]1O)Oc1ccccc1 | - | - | - | CEM + CEM TK- | >100 µM
Nc1ccn(C[C@H]2C[C@H]2CO)c(=O)n1 | - | - | LAV | PBMC | >100 µM
[N-]=[N+]=NCCCCCCCCCCCC(=O)Nc1ccn([C@@H]2CS[C@H](COC(=O)CCCCCCCCCCCN=[N+]=[N-])O2)c(=O)n1 | - | - | IIIB | SupT1 | >100 µg/mL
O=C(CSc1nc(CCc2ccccc2)nc2sc3c(c12)CCCC3)NCc1cccs1 | - | - | - | - | 92.9 µM
NC1=NS(=O)(=O)N(Cc2ccccc2)c2c1ncn2[C@H]1CS[C@@H](CO)O1 | - | - | RF | MT-4 | >100 µg/mL
Cc1cn([C@H]2C=C[C@@H](CCP(=O)(O)O)O2)c(=O)[nH]c1=O | - | - | - | MT-4 | >1000 µM
C#C[C@]1(COC(=O)CC(F)(F)F)O[C@@H](n2cnc3c(N)nc(F)nc32)C[C@@H]1O | pseudotyped | M184V | NL4-3 | U373-CD4-CXCR4 | 0.037 µM
CCOCn1c(Cc2cccc3ccccc23)c(C)c(=O)[nH]c1=O | - | - | LAV | CEM | 0.167 µM
Nc1ncnc2c1ncn2[C@@H]1O[C@H](CO)[C@@H](O)[C@H]1C(F)(F)F | - | - | - | - | >100 µM
Cc1ccc(S(=O)(=O)NC(C)c2nnc(SCc3ccc(Cl)cc3)o2)cc1 | - | - | IIIB | MT-4 | >27.93 µg/mL
Cc1cn([C@@H]2O[C@H](CO)C3C2C3(F)F)c(=O)[nH]c1=O | - | - | - | - | 11 µM
NC1=NS(=O)(=O)N(Cc2ccccc2)c2ncn([C@@H]3CS[C@@H](CO)O3)c21 | - | - | RF | MT-4 | >100 µg/mL
C#C[C@]1(COC(=O)C(C)(C)C(F)(F)F)O[C@@H](n2cnc3c(N)nc(F)nc32)C[C@@H]1O | pseudotyped | M184V | NL4-3 | U373-CD4-CXCR4 | 0.09 µM
CCCc1c(OC2CCCC2)c2cc(Cl)ccc2[nH]c1=O | - | RT-Y181C | Nevirapine-resistant (RT Y181C) | MT-4 | 1.63 µM
CC[C@H](C)[C@H](NC(=O)[C@@H]1CCCN1[P@@](=O)(OC)[C@@H](Cc1ccccc1)NC(=O)OCc1ccccc1)C(=O)NCC(C)C | - | - | RF | C8166 | >100 µM
CSCCC(NS(=O)(=O)c1ccc(Cl)cc1)c1nnc(SCc2ccc(F)cc2)o1 | - | - | IIIB | MT-4 | >13.65 µg/mL
C#C[C@]1(COC(=O)CCCCCCCCCCCC)O[C@@H](n2cnc3c(N)nc(F)nc32)C[C@@H]1O | pseudotyped | M184V | NL4-3 | U373-CD4-CXCR4 | 0.012 µM
N#Cc1cc(Cl)cc(Oc2c(Br)ccc(CC(=O)Nc3ccc(S(N)(=O)=O)cc3Cl)c2F)c1 | - | Wild type | HXB2D | MT-4 | 0.0013 µM
CCCc1c(OC2CCCC2)c2cc(C#N)ccc2[nH]c1=O | - | RT-Y181C | Nevirapine-resistant (RT Y181C) | MT-4 | 2.36 µM
CSc1nc(N)cc(=O)n1CCOCP(=O)(O)O | - | - | IIIB | CEM + CEM-SS | >100 µg/mL
COCn1c(Cc2ccc3ccccc3c2)c(C)c(=O)[nH]c1=O | - | - | LAV | MT-4 | 15.6 µM
C=C1[C@H](CO)[C@H]1Cn1cnc2c(=O)[nH]c(N)nc21 | - | - | - | - | >100 µM
Cc1cn([C@H]2C=C[C@@H](OCP(=O)(O)O)C2)c(=O)[nH]c1=O | - | - | - | MT-4 | >1000 µM
CC(C)(C)NC(=O)[C@H]1N(C(=O)[C@@H](O)[C@H](Cc2ccccc2)NC(=O)CC(C)(C)C(=O)O)CSC1(C)C | - | - | - | MT-4 | 52 µM
CCc1c(Cc2ccc3ccccc3c2)n(COCCO)c(=O)[nH]c1=O | - | - | LAV | CEM | >56.5 µM